Patent publication US10016498B2, “D-amino acid derivative-modified peptidoglycan and methods of use thereof” (priority 2012, dated 2018)

Columns and labels:
[1] = tested on: bacteria (E. coli, Bacillus subtilis, L. monocytogenes, Mycobacterium tuberculosis, Streptomyces coelicolor, Corynebacterium glutamicum); conditions: strain-promoted cycloaddition or CuAAC with fluorescent dye
[2] = tested on: L. monocytogenes; conditions: 5 mM azDala, 2 mM D-alanine, strain-promoted cycloaddition, dal- dat- L. monocytogenes
[3] = tested on: L. monocytogenes proteins and LTA; test: Immunoblot for incorporation of azDala into proteins and lipoteichoic acids

[N-]=[N+]=NC[C@@H](N)C(=O)O
cell surface labeling by microscopy [1]: Clear cell surface labeling of all species tested | labeling on addition of exogenous D-alanine [2]: suppressed | incorporation into LTA (phosphine-FLAG, immunoblot) [3]: No azide-labeled species was detected | incorporation into proteins (lysates reacted with alkyne-biotin, immunoblot) [3]: No azide-labeled proteins were detected
